In the supplement of paper PMC9931576:
Positions count from the first letter of the chain named. Human monoclonal antibodies against the spike receptor-binding domain (heavy:light variable regions). IC50 against pseudoviruses bearing the spike of naturally observed variants; lower = stronger; >10 µg/ml means not reached at the top dose. No active / inactive call. The stated detection limit is 0.0005 µg/ml; values near or below 0.001 µg/ml lie at the floor of the assay.

B1: BD56-1257 (protein)
chain 1: QVQLVESGGGVVQPGRSLRLSCAASGFTFSDYSMHWVRQAPGKGLEWVAVISSDGSQKYYADSVQGRLTISRDNSKNTLYLQMNRLRAEDTAVYYCARLLGYYDSSAFYGSDWWGQGTLVTVSS
chain 2: QSALTQPASVSGSPGQSITISCTGSSSDVGGYNYVSWYQVHPGKAPKLMIYDVDNRPSGVSDRFSGSKSGNTASLTVSGLQAEDEADYYCSSYTTSSTFLFGGGTKLTVL
B2: BD56-1260 (protein)
chain 1: QVQLVQSGADVKKPGSSVKVSCKASGGTFSSHSISWVRQAPGQGPEWIGTIIPILGISNNAQRFQGRVTITADKSTSTAYMELSSLRSEDTAVYYCARSYYYDSTDLAADAFDIWGQGTMVTVSS
chain 2: QSVLTQPPSVSGAPGQRVTVSCTGTNSNIGAGYDVHWYQQLPGTAPKLLIFGNNNRPSGVPDRFSGSKSGTSASLAITGLQAEDEADYYCQSYDSSLIGPVFGGGTKLAVL
B3: BD56-1265 (protein)
chain 1: QVQLVQSGAEVKKPGSSVKVSCKVSGGTLINYALSWVRQAPGQGLEWMGDIVPILDMTNYAQKFQGRVTISADKSTSTGYMELSSLRSEDTAVYYCATGGRYCSGHICYSSYFKSWGQGTLVTVSS
chain 2: EIVLTQSPGTLSLSPGERATLSCRASQSLSSSHLAWYQQKPGQAPRLLIFGASNRATGIPDRFSGSGSGTDFTLTISRLAPEDFGVYYCQQYGSSPQRTFGQGTKVEIK
B4: COV2-2068 (protein)
chain 1: EVQLVESGGGLVQPGGSLRLSCAASGFTVSSNYMSWVRQAPGKGLEWVSVIYPGGSAFYADSVKGRFTISRHNSNNTLCLQMNSLRTEDTAVYYCARSYDILTGYRDAFDIWGQGTMVTVSS
chain 2: QSVLTQPPSVSGAPGQRVTISCTGSSSNIGSGSDVHWYQQLPGTAPKLLIYGNTNRPSGVPDRFSGSKSGTSASLAITGLQAEDEADYYCQSYDSRLSGFVVFGGGTKLTVL
B5: BD56-1271 (protein)
chain 1: EVQLVESGGGLVQPGRSLRLSCAASGFTFEDYGMHWVRQAPGKGLEWVSGIGWNSGVIGYADSVKARFTISRDNAKNSLYLQMNRLRVEDTAFYFCAKDTDRLGFGELALDVWGQGTTVTVSS
chain 2: B4 chain 2 with S31A, S33Y, Y51H, T54S, R96S, F100S
B6: BD56-1272 (protein)
chain 1: QVHLVQPGAEVKKPGASVTVSCKASGYTLSSYYMHWVRQAPGQGLEWMGVINPSGGGRRNAQKFQGRVTMTTDTSTGTFFMELSSLASEDTAVYYCARELIVPAAGYMDVWGKGSTVTVSS
chain 2: SYVLTQPPSVSVAPGKTARITCGGSNIGSKSVHWYQQKPGQAPALVVYDDSDRPSGIPERFSGSNSGNTATLTISRVEAGDEADYYCQVWDGSSDHFYVFGTGTKVTVL

Biological target: SARS-CoV-2 Omicron BA.1 spike pseudovirus
Experiment: pseudovirus neutralization IC50; higher = weaker neutralization
Protocol: (§1)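 Single-round VSV luciferase pseudovirus mixed with antibody dilutions for 1 h and put on Huh-7 cells for about a day; IC50 from the dose curve.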

Binder	pseudovirus neutralization IC50
B1	0.192 µg/mL
B2	0.184 µg/mL
B3	1.18 µg/mL
B4	0.0701 µg/mL
B5	> 10 µg/mL
B6	> 10 µg/mL

Biological target: SARS-CoV-2 Omicron BA.2 spike pseudovirus
Experiment: as above
Protocol: as §1

Binder	pseudovirus neutralization IC50
B1	0.311 µg/mL
B2	0.128 µg/mL
B3	0.0743 µg/mL
B4	0.115 µg/mL
B5	> 10 µg/mL
B6	> 10 µg/mL

Biological target: SARS-CoV-2 Omicron BA.2.75 spike pseudovirus
Experiment: as above
Protocol: as §1

Binder	pseudovirus neutralization IC50
B1	0.388 µg/mL
B2	0.188 µg/mL
B3	0.256 µg/mL
B4	> 10 µg/mL
B5	> 10 µg/mL
B6	> 10 µg/mL

Biological target: SARS-CoV-2 Omicron BA.5 spike pseudovirus
Experiment: as above
Protocol: as §1

Binder	pseudovirus neutralization IC50
B1	0.208 µg/mL
B2	> 10 µg/mL
B3	> 10 µg/mL
B4	0.0427 µg/mL
B5	> 10 µg/mL
B6	> 10 µg/mL

Biological target: SARS-CoV-2 Omicron BQ.1.1 spike pseudovirus
Experiment: as above
Protocol: as §1

Binder	pseudovirus neutralization IC50
B1	> 10 µg/mL
B2	> 10 µg/mL
B3	> 10 µg/mL
B4	> 10 µg/mL
B5	> 10 µg/mL
B6	> 10 µg/mL

Biological target: SARS-CoV-2 Omicron XBB spike pseudovirus
Experiment: as above
Protocol: as §1

Binder	pseudovirus neutralization IC50
B1	2.1 µg/mL
B2	1.85 µg/mL
B3	> 10 µg/mL
B4	> 10 µg/mL
B5	> 10 µg/mL
B6	> 10 µg/mL

Biological target: SARS-CoV-2 early D614G spike pseudovirus
Experiment: as above
Protocol: as §1

Binder	pseudovirus neutralization IC50
B1	0.0196 µg/mL
B2	0.0866 µg/mL
B3	0.00322 µg/mL
B4	0.0217 µg/mL
B5	0.151 µg/mL
B6	> 10 µg/mL
